We go through one compound from PMC7279216, “Identification of Inhibitors to Trypanosoma cruzi Sirtuins Based on Compounds Developed to Human Enzymes” (International Journal of Molecular Sciences, 2020).

Assay [1] deals with T. cruzi Y H10 strain. The experiment in a line: High content assay (HCA), T. cruzi in vitro infection of U2OS cells. The assay is classed as cell-based, Trypanosoma cruzi.
The test system of assay [2] is T. cruzi Y H10 strain. The experiment in a line: Combinatory high content assay of SIRTi with BZN, T. cruzi in vitro infection. Type of assay: cell-based, Trypanosoma cruzi.

`C=CCN1C(=O)/C(=C\c2ccc(-c3ccc(Cl)c(Cl)c3)o2)C(=O)NC1=S` [Compound 32]: the “SI (selectivity index = CC50/EC50)” value in the assay on T. cruzi Y H10 strain [1] is given as 1.93. For the same compound, the “CI (combinatory index) with BZN” value stood at 0.19 in the assay on T. cruzi Y H10 strain [2] (Ratio 1, EC50 ratio 1/32 (BZN 0.8 µM)); 0.30 in the assay with T. cruzi Y H10 strain [2] (Ratio 2, EC50 ratio 1/16 (BZN 1.5 µM)); 0.82 in the assay with T. cruzi Y H10 strain [2] (Ratio 3, EC50 ratio 1/8 (BZN 3 µM)); 0.84 in the assay on T. cruzi Y H10 strain [2] (Ratio 4, EC50 ratio 1/4 (BZN 6 µM)); 1.56 in the assay on T. cruzi Y H10 strain [2] (Ratio 5, EC50 ratio 1/2 (BZN 12 µM)); 1.66 with T. cruzi Y H10 strain [2] (Ratio 6, EC50 ratio 1 (BZN 24 µM)). The “CI (combinatory index) with BZN” value in the assay with T. cruzi Y H10 strain [2] (Ratio 7, EC50 ratio 2 (BZN 48 µM)) was 1.82.
